Sequences and labels used below:
B1: BD55-1338 (protein)
chain 1: QITLKESGPTLVKPTQTLTLTCTFSGFSLTTRGVGVGWIRQPPGKALEWLALIFWNDDNRYSPSLKSRLTITRDTSKNQVVLTMTNMDPVDTGTYYCAHKSRDSELMVYVDDYYFDYWGQGTLVTVSS
chain 2: AHELTQPPSVSVSPGQTARITCSGDSLPMQYVYWYQQRPGQAPVVVIYKDSERPSGIPERFSGSTSGTTVTLTITGVQAEDEADYYCQTADSSGTSFGGGTKLTVL
B2: BD55-1345 (protein)
chain 1: EVQLVESGGGLVQPGGSLRLSCSASGFVFSSYAMHWVRQAPGRGLEYVSSISSNGDSTDYADSVKGRFTISRDNSKNTLFLQMSSLRVEDTAVYYCVKDTLTRWEIFFDYWGQGTLVSVSS
chain 2: DIQMTQSPSSLSASVGDRVTITCRASQNINRYLIWYQQKPGKAPNLLIYAASTLQSGVPSRFSGSGSGTDFTLTISSLQPEDFATYYCQQSYTTPPTFGQGTKVEIK
B3: BD55-1507 (protein)
chain 1: EVQLVESGGGLVQPGGSLRLSCSASGFTFSSYSFHWVRQAPGKGLEHVSAISRNGDITDSADSVKGRFTISRDNSKNTLYLQMSSLRVEDTARYYCVKDVDTVMVTLFDYWGQGTLVTVSS
chain 2: B2 chain 2 with N28S, N30S, I34N, N45K, A50V, A51T, T53S, P96Y, V104L
B4: BD55-1442 (protein)
chain 1: QVQLVQSGAEVKKPGSSVKVSCKASGGTFSSYAISWVRQAPGQGLEWMGRIIPIIGIANYAQKFQGRVTITADKSTSTVYMELSSLRSEDTAVYYCARRGGPMVRGGDYGLDVWGQGTTVTVSS
chain 2: QSVLTQPPSVSGAPGQRVTISCTGSNSNIGAGYDVHWYQQLPGTAPKLLIYGNSNRPSGVPDRFSGSKSDTSASLAITGLQVEDEADYYCQSYDSSLSDYVFGTGTEVTVL
B5: BD55-1381 (protein)
chain 1: DVQLVESGGGLVRPGGSLRLSCSASGFTFSSYVMHWVRQAPGKGLEYVADISSNGDITYYADSVKGRFTISRDNSKRELYLQMSSLRSEDTAVYYCVKDDLTSMTTLFDYWGQGTLVTVSS
chain 2: DIQMTQSPSSLSASVGDSVTLTCRASQTISRFLNWYQQKPGKAPKLLIYDASYLKSGVPSRFSGSGSGTDFILTITSLQPEDFATYYCQQSYTTPVTFGQGTKVEVK
B6: BD55-1576 (protein)
chain 1: QVQLVESGTEVKKPGDSVKVSCKASGYTFTGHYIHWVRQAPGQGLEWMGWISPMTGATKYAQRFRDRVTMTIDTSTTTGYMELRRLTGDDAAIYYCARDLSFAMVRGDLDSWGQGALVTVFS
chain 2: QSVLTQPASVSGSPGQSITISCTGTTSDAESYNVVSWYQQHPGKVPKLIIYEGTKRPSGVSNRFSGSKSGDTASLTISGLQAEDEADYYCCSYAGSSTWVFGRGTKLTVL
B7: BD55-1341 (protein)
chain 1: QVTLRESGPALVKPTQTLTLTCTFSGFSLSTTGMCINWIRQPPGKALEWVARIDWNDDKYYSPSLKTRLTISKDTSKNQVVLTMTNMDPVDTATYYCARISTGGYGNYAYFFDYWGQGSLVTVSS
chain 2: SYELTQPPSLSVSPRQTARITCSGDAFPKQYAYWYQQKPGQAPVLVIYKDTERPSGIPERFSGSSSGTTVTLTITGVQAEDEADYYCQSADSSAVVFGGGTKLTVL

This is an account of results in the supplement of paper PMC9931576.

Residue numbers refer to the chain shown, from its start. Human monoclonal antibodies against the spike receptor-binding domain (heavy:light variable regions). IC50 against pseudoviruses bearing the spike of naturally observed variants; lower = stronger; >10 µg/ml means not reached at the top dose. No active / inactive call. The stated detection limit is 0.0005 µg/ml; values near or below 0.001 µg/ml lie at the floor of the assay.

One assay has as its target SARS-CoV-2 Omicron BA.1 spike pseudovirus. In words: pseudovirus neutralization IC50; higher = weaker neutralization. As for the experimental part:
(§1)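 Single-round VSV luciferase pseudovirus mixed with antibody dilutions for 1 h and put on Huh-7 cells for about a day; IC50 from the dose curve.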
Take B1: the “pseudovirus neutralization IC50” value turned out to be 5.01 µg/mL.

On to B2, for which the “pseudovirus neutralization IC50” value is more than 10 µg/mL.

With B3, the “pseudovirus neutralization IC50” value was more than 10 µg/mL.

With B4, the “pseudovirus neutralization IC50” value amounted to 0.392 µg/mL.

Take B5: the “pseudovirus neutralization IC50” value is 5.88 µg/mL.

In the case of B6, the “pseudovirus neutralization IC50” value is more than 10 µg/mL.

For B7, the “pseudovirus neutralization IC50” value is more than 10 µg/mL.

In another assay the target is SARS-CoV-2 Omicron BA.2 spike pseudovirus. The description is as above. As for the experimental part:
as §1
As to B1, the “pseudovirus neutralization IC50” value stood at 5.43 µg/mL.

With B2, the “pseudovirus neutralization IC50” value is more than 10 µg/mL.

For B3, the “pseudovirus neutralization IC50” value was more than 10 µg/mL.

As to B4, the “pseudovirus neutralization IC50” value was found to be 0.42 µg/mL.

With B5, the “pseudovirus neutralization IC50” value came out at 6.11 µg/mL.

On to B6, for which the “pseudovirus neutralization IC50” value is more than 10 µg/mL.

Consider B7, for which the “pseudovirus neutralization IC50” value is more than 10 µg/mL.

Another assay deals with SARS-CoV-2 Omicron BA.2.75 spike pseudovirus. The description is as above. How it is done:
as §1
On to B1, for which the “pseudovirus neutralization IC50” value was found to be 5.99 µg/mL.

Consider B2, for which the “pseudovirus neutralization IC50” value is more than 10 µg/mL.

On to B3, for which the “pseudovirus neutralization IC50” value is more than 10 µg/mL.

Turning to B4, the “pseudovirus neutralization IC50” value was determined as 0.458 µg/mL.

In the case of B5, the “pseudovirus neutralization IC50” value is 4.94 µg/mL.

As to B6, the “pseudovirus neutralization IC50” value is more than 10 µg/mL.

For B7, the “pseudovirus neutralization IC50” value was more than 10 µg/mL.

The target in another assay is SARS-CoV-2 Omicron BA.5 spike pseudovirus. Described as above. How it is done:
as §1
As for B1, the “pseudovirus neutralization IC50” value was determined as 4.5 µg/mL.

In the case of B2, the “pseudovirus neutralization IC50” value is more than 10 µg/mL.

For B3, the “pseudovirus neutralization IC50” value is more than 10 µg/mL.

Turning to B4, the “pseudovirus neutralization IC50” value was 8.73 µg/mL.

As to B5, the “pseudovirus neutralization IC50” value is 4.04 µg/mL.

As for B6, the “pseudovirus neutralization IC50” value is more than 10 µg/mL.

For the molecule B7, the “pseudovirus neutralization IC50” value is more than 10 µg/mL.

In the next assay the target is SARS-CoV-2 Omicron BQ.1.1 spike pseudovirus. The description is as above. As for the experimental part:
as §1
Regarding B1, the “pseudovirus neutralization IC50” value is 3.91 µg/mL.

Regarding B2, the “pseudovirus neutralization IC50” value was more than 10 µg/mL.

As for B3, the “pseudovirus neutralization IC50” value was more than 10 µg/mL.

For the molecule B5, the “pseudovirus neutralization IC50” value is 5.01 µg/mL.

Take B6: the “pseudovirus neutralization IC50” value is more than 10 µg/mL.

With B7, the “pseudovirus neutralization IC50” value is more than 10 µg/mL.

Another assay deals with SARS-CoV-2 Omicron XBB spike pseudovirus. Described as above. How it is done:
as §1
Turning to B1, the “pseudovirus neutralization IC50” value is 4.77 µg/mL.

For B2, the “pseudovirus neutralization IC50” value is more than 10 µg/mL.

As to B3, the “pseudovirus neutralization IC50” value was more than 10 µg/mL.

Consider B5, for which the “pseudovirus neutralization IC50” value came to 4.99 µg/mL.

As to B6, the “pseudovirus neutralization IC50” value is more than 10 µg/mL.

In the case of B7, the “pseudovirus neutralization IC50” value is more than 10 µg/mL.

The next assay has as its target SARS-CoV-2 early D614G spike pseudovirus. Described as above. How it is done:
as §1
Consider B1, for which the “pseudovirus neutralization IC50” value was 0.846 µg/mL.

On to B2, for which the “pseudovirus neutralization IC50” value was more than 10 µg/mL.

Turning to B3, the “pseudovirus neutralization IC50” value is more than 10 µg/mL.

As to B4, the “pseudovirus neutralization IC50” value worked out at 0.0389 µg/mL.

In the case of B5, the “pseudovirus neutralization IC50” value was found to be 3 µg/mL.

For the molecule B6, the “pseudovirus neutralization IC50” value was 0.001 µg/mL.

Take B7: the “pseudovirus neutralization IC50” value is more than 10 µg/mL.
